System: IIIB strain of HIV
Format: cell-based
Details: MT-4 cells, 3 days, p24 ELISA, approximate log10 concentration
Procedure: The following test procedure was employed.
In a classical virology assay aimed at testing the antiviral activity of a drug, the virus is added in the presence of a drug to target cells for the determined period of inoculation time, e.g., 1 hour, and then nonadsorbed virus is washed away and inoculated cells are exposed again to a fresh drug. After several days, a period corresponding to the replication cycle of the virus, the dose-effect of the drug is tested by measuring the quantity of newly-synthesized virus in the culture supernates of inoculated cells. But this strategy is not truly representative of the in vivo situation. It is clear that in a real-life situation the virus is not "flushed" from a human body prior to drug administration. […] In the present assay, virus, drug and cells were left without washing in the culture until tested for virus production 3 days later. This period of time presents one full cycle of HIV replication, Dimitrov et al., J. Virol. 67:2182-90, 1993. […]
p24 ELISA. Reduction of productive infection was evaluated by a commercial ELISA kit for viral core gag p24 product according to the manufacturer's instructions (Coulter, Hialeah, Fla.) as follows. […] The amount of captured p24 was measured by comparing the optical density (450 nm) of peroxidase substrate with supplied standards containing known amounts of p24. […]

## gramicidin
  IC50 (50% inhibition of HIV infection): 10 pg
